What follows are compounds tested on DENV-2 16681 strain (assay: DENV-2 antiviral assay (eGFP-labeled virus in Vero cells)). Settings: SI=CC50/EC50, DENV-2 antiviral assay.
Format: cell-based, Dengue virus
Procedure: The antiviral activity of all the compounds of the invention was tested the against DENV-2 16681 strain which was labeled with enhanced green fluorescent protein (eGPF). The culture medium consists of minimal essential medium supplemented with 2% of heat-inactivated fetal calf serum, 0.04% gentamycin (50 mg/mL) and 2 mM of L-glutamine. Vero cells, obtained from ECACC, were suspended in culture medium and 25 μL was added to 384-well plates (2500 cells/well), which already contain the antiviral compounds. Typically, these plates contain a 5-fold serial dilution of 9 dilution steps of the test compound at 200 times the final concentration in 100% DMSO (200 nL). […] Finally, each plate contains wells which are assigned as virus controls (containing cells and virus in the absence of compound), cell controls (containing cells in the absence of virus and compound) and medium controls (containing medium in the absence of cells, virus and compounds). To the wells assigned as medium control, 25 μL of culture medium was added instead of Vero cells. Once the cells were added to the plates, the plates were incubated for 30 minutes at room temperature to allow the cells to distribute evenly within the wells. Next, the plates were incubated in a fully humidified incubator (37° C., 5% CO2) until the next day. Then, DENV-2 strain 16681, labeled with eGFP, was added at a multiplicity of infection (MOI) of 0.5. Therefore, 15 μL of virus suspension was added to all the wells containing test compound and to the wells assigned as virus control. In parallel, 15 μL of culture medium was added to the medium and cell controls. Next, the plates were incubated for 3 days in a fully humidified incubator (37° C., 5% CO2). At the day of the read out, the eGFP fluorescence was measured using an automated fluorescence microscope at 488 nm (blue laser). Using an in-house LIMS system, inhibition dose response curves for each compound were calculated and the half maximal effective concentration (EC50) was determined. Therefore, the percent inhibition (I) for every test concentration is calculated using the following formula: I=100*(ST-SCC)/(SVC-SCC), ST, SCC and SVC are the amount of eGFP signal in the test compound, cell control and virus control wells, respectively. The EC50 represents the concentration of a compound at which the virus replication is inhibited with 50%, as measured by a 50% reduction of the eGFP fluorescent intensity compared to the virus control. The EC50 is calculated using linear interpolation (Table 1).

`COc1cc(NC(C(=O)N2CCc3ccc(OC(F)(F)F)cc32)c2ccc(Cl)cc2)cc(OCCO)c1` (single isomer, unassigned) [Compound 3B, 2-(4-chlorophenyl)-2-((3-(2-hydroxyethoxy)-5-methoxyphenyl)amino)-1-(6-(trifluoromethoxy)indolin-1-yl)ethanone] was tested. Which SI did it give?
The SI was 19.

Which SI does the source give for `COc1cc(NC(C(=O)N2CCc3cc(F)c(C(F)(F)F)cc32)c2ccc(Cl)cc2)cc(OCCO)c1` (racemic) [Compound 12, 2-(4-chlorophenyl)-1-(5-fluoro-6-(trifluoromethyl)indolin-1-yl)-2-((3-(2-hydroxyethoxy)-5-methoxyphenyl)amino)ethanone] here?
The SI was 966.

Which SI does the source give for `COc1cc(NC(C(=O)N2CCc3ccc(C(F)(F)F)cc32)c2ccc(Cl)cc2OC)cc(OCCO)c1` (single isomer, unassigned) [Compound 1A, 2-(4-chloro-2-methoxyphenyl)-2-((3-(2-hydroxyethoxy)-5-methoxyphenyl)amino)-1-(6-(trifluoromethyl)indolin-1-yl)ethanone] here?
Its SI is 50.

For `COc1cc(NC(C(=O)N2CCc3cc(OC)c(C(F)(F)F)cc32)c2ccc(Cl)cc2OC)cc(OCCO)c1` (racemic) [Compound 11, 2-(4-chloro-2-methoxyphenyl)-2-((3-(2-hydroxyethoxy)-5-methoxyphenyl)amino)-1-(5-methoxy-6-(trifluoromethyl)indolin-1-yl)ethanone], which SI is on record?
The SI was 8650.

With `COc1cc(NC(C(=O)N2CCc3ccc(OC(F)(F)F)cc32)c2ccc(Cl)cc2F)cc(OCCO)c1` (racemic) [Compound 6, 2-(4-chloro-2-fluorophenyl)-2-((3-(2-hydroxyethoxy)-5-methoxyphenyl)amino)-1-(6-(trifluoromethoxy)indolin-1-yl)ethanone] as the compound, how does the SI read?
The SI was 1940.

For `COc1cc(NC(C(=O)N2CCc3cc(F)c(C(F)(F)F)cc32)c2ccc(Cl)cc2)cc(OCCO)c1` (single isomer, unassigned) [Compound 12B, 2-(4-chlorophenyl)-1-(5-fluoro-6-(trifluoromethyl)indolin-1-yl)-2-((3-(2-hydroxyethoxy)-5-methoxyphenyl)amino)ethanone], which SI is on record?
Its SI is 27.

`COc1cc(NC(C(=O)N2CCc3ccc(OC(F)(F)F)cc32)c2ccc(Cl)cc2F)cc(OCCO)c1` (single isomer, unassigned) [Compound 6A, 2-(4-chloro-2-fluorophenyl)-2-((3-(2-hydroxyethoxy)-5-methoxyphenyl)amino)-1-(6-(trifluoromethoxy)indolin-1-yl)ethanone] was tested. Which SI did it give?
The SI was 49.

With `COc1cc(NC(C(=O)N2CCc3c(C)cc(OC(F)(F)F)cc32)c2ccc(Cl)cc2)cc(OCCO)c1` (single isomer, unassigned) [Compound 9A, 2-(4-chlorophenyl)-2-((3-(2-hydroxyethoxy)-5-methoxy-phenyl)amino)-1-(4-methyl-6-(trifluoromethoxy)indolin-1-yl)ethanone] as the compound, how does the SI read?
The SI was 12.

How did the SI turn out when `COc1cc(NC(C(=O)N2CCc3cc(OC)c(C(F)(F)F)cc32)c2ccc(Cl)cc2)cc(OCCO)c1` (racemic) [Compound 7, 2-(4-chlorophenyl)-2-((3-(2-hydroxyethoxy)-5-methoxyphenyl)amino)-1-(5-methoxy-6-(trifluoromethyl)indolin-1-yl)ethanone] was run?
The SI was 4670.

For `COc1cc(NC(C(=O)N2CCc3cc(OC)c(C(F)(F)F)cc32)c2ccc(Cl)cc2F)cc(OCCO)c1` (racemic) [Compound 8, 2-(4-chloro-2-fluorophenyl)-2-((3-(2-hydroxyethoxy)-5-methoxyphenyl)amino)-1-(5-methoxy-6-(trifluoromethyl)indolin-1-yl)ethanone], which SI is on record?
The SI was >6100.

How did the SI turn out when `COc1cc(NC(C(=O)N2CCc3cc(OC)c(C(F)(F)F)cc32)c2ccc(Cl)cc2F)cc(OCCO)c1` (single isomer, unassigned) [Compound 8A, 2-(4-chloro-2-fluorophenyl)-2-((3-(2-hydroxyethoxy)-5-methoxyphenyl)amino)-1-(5-methoxy-6-(trifluoromethyl)indolin-1-yl)ethanone] was run?
Its SI is >81.
